Molecular target: Mtb Pks13-TE domain (wild-type) (Mycobacterium tuberculosis, UniProt I6X8D2)
Conditions: 20 μM 4-MUH

Sequences of proteins named here, by UniProt entry; tags and fusion partners are left off. Residues count along the entry.
UniProt I6X8D2, 1451-1733 limits assumed: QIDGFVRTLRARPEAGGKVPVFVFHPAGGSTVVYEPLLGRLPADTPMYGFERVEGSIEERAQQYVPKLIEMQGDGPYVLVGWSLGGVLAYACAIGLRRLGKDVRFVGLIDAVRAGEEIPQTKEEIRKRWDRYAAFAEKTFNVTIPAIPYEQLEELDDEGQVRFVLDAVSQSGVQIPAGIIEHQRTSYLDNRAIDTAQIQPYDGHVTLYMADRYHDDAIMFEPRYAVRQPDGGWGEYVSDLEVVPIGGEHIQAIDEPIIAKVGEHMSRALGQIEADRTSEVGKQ

| Structure (SMILES) | IC50 |
| --- | --- |
| CCOC(=O)c1c(-c2ccccc2)oc2ccc(O)c(CCN3CCCC3CCO)c12 (centres unmarked) | 6.5 µM |
| CNC(=O)c1c(-c2ccccc2)oc2ccc(O)c(CCN[C@@H](Cc3cnc[nH]3)C(N)=O)c12 | 1.6 µM |

From US20180111913A1, “SUBSTITUTED BENZOFURAN DERIVATIVES AS NOVEL ANTIMYCOBACTERIAL AGENTS” (priority 2015, published 2018)
